Anti-infective test results gathered from many reports (values: NIAID ChemDB through PubChem).

Common to all: whole-cell or culture tests; agent: HIV-1

Conditions beyond the fields shown may differ between rows. Blank or dashed fields: not listed here. ECn: concentration that inhibits the pathogen or its effect by n%.

O=C1CN=C(c2ccc[nH]2)c2cc(Cl)ccc2N1 ; cells: CEM ; read by: antigen ; strain or isolate: IIIB/LAI ; read-out: EC50 ; value: 0.4 µM
CO[P@](=O)(c1cc(C)cc(/C=C/C#N)c1)c1c(C(N)=O)[nH]c2ccc(Cl)c(F)c12 ; cells: MT-4 ; strain or isolate: BH10 ; read-out: EC50 ; value: 0.00028 µM
Fc1cccc(F)c1C1SCc2nc3ccccc3n21 ; mutations: RT-T139I ; cells: CEM + CEM-SS ; read by: XTT ; strain or isolate: Calanolide A-resistant (RT T139I) ; read-out: EC50 ; value: 3.9 µM
CCC[C@@]1(CCc2ccccc2)CC(O)=C([C@H](CC)c2cccc(NS(=O)(=O)c3ccc(C(F)(F)F)cn3)c2)C(=O)O1 ; cells: H9 ; read by: p24 ; strain or isolate: IIIB ; read-out: EC50 ; value: <0.16 µM
O=C(Nc1cc(S(=O)(=O)O)cc2cc(S(=O)(=O)O)c(N=Nc3ccc(N=Nc4c(S(=O)(=O)O)cc5cc(S(=O)(=O)O)cc(NC(=O)c6cccc(Cl)c6Cl)c5c4O)cc3)c(O)c12)c1ccc(Cl)cc1Cl ; cells: MONO/MACRO + Monocytes/macrophages ; strain or isolate: BaL ; read-out: EC90 ; value: 0.63 µg/mL
Cc1occc1C(=S)Nc1ccc(Cl)c(/C=N/OC(C)(C)C)c1 ; mutations: RT-K103N ; cells: CEM ; read by: p24 ; strain or isolate: IIIB ; read-out: EC50 ; value: ≥1 µg/mL
CC(C)CN(C[C@@H](O)[C@H](Cc1ccccc1)NC(=O)O[C@H]1CCOC1)S(=O)(=O)c1ccc(N)cc1 ; mutations: PR-L10I I15V E35D N37E K45R I54V L63P A71V V82T L90M I93L C95F ; cells: PBMC ; read by: p24 ; strain or isolate: Clinical isolate ; read-out: EC50 ; value: 0.26 µM
CCCc1cc(=O)oc2c3c(c4c(c12)OC(C)(C)C=C4)O[C@@H](C)[C@H](C)[C@@H]3O ; mutations: RT-Y188C ; cells: CEM + CEM-SS ; read by: XTT ; strain or isolate: NL4-3 ; read-out: EC50 ; value: 1.7 µM
Cc1cn([C@H]2C[C@H](N=[N+]=[N-])[C@@H](CO)O2)c(=O)[nH]c1=O ; mutations: RT-A98G K103R Y181C ; cells: PBMC ; strain or isolate: BCF01 ; read-out: EC50 ; value: <0.01 µM
CC(C)Nc1cccnc1N1CCN(C(=O)c2cc3cc(NS(C)(=O)=O)ccc3[nH]2)CC1 ; mutations: RT-T139K Y181C Y188D/Y ; cells: CEM ; read by: cytopathic effect ; strain or isolate: Q-1 (RT T139K Y181C Y188D/Y) ; read-out: EC50 ; value: 1.1 µg/mL
CC(C)(C)NC(=O)[C@@H]1C[C@@H]2CCCC[C@@H]2CN1C[C@@H](O)[C@H](Cc1ccccc1)NC(=O)[C@H](CC(N)=O)NC(=O)c1ccc2ccccc2n1 ; mutations: PR-L10V K20C M36I L63T I64V A71V ; cells: PBMC ; strain or isolate: BCF01 ; read-out: EC50 ; value: 0.0204 µM
C[C@H](Cn1cnc2c(N)ncnc21)OCP(=O)(O)O ; mutations: RT-A62T V118I M184V ; cells: HeLa ; read by: luciferase ; strain or isolate: Recombinant ; read-out: EC50 ; value: 0.61 µM
CC(C)(C)NC(=O)[C@@H]1C[C@@H]2CCCC[C@@H]2CN1C[C@@H](O)[C@H](Cc1ccccc1)NC(=O)[C@H](CC(N)=O)NC(=O)c1ccc2ccccc2n1 ; mutations: PR-L10I I15V K20R M36I M46L I54V K55R I62V L63P K70Q V82A L89M ; cells: PBMC ; read by: p24 ; strain or isolate: Clinical isolate ; read-out: EC50 ; value: 0.037 µM
Cc1ccnc2c1NC(=O)c1cccnc1N2C1CC1 ; mutations: KM0148 ; cells: C8166 ; read by: ELISA ; strain or isolate: Clinical isolate ; read-out: EC50 ; value: 0.135 µM
Cc1cn([C@H]2C[C@H](N=[N+]=[N-])[C@@H](CO)O2)c(=O)[nH]c1=O ; mutations: RT-M41L D67N V118I M184V L210W T215Y ; cells: HeLa ; read by: luciferase ; strain or isolate: NRTI resistant ; read-out: EC50 ; value: 0.156 µM
Cc1cc(C)c(Nc2ccnc(Nc3ccc(C#N)cc3)n2)c(C)c1 ; cells: PBMC ; read by: absorbance ; strain or isolate: 35764-2 ; read-out: EC50 ; value: 0.0016 µM
Cc1ccnc2c1NC(=O)c1cccnc1N2C1CC1 ; mutations: RT-Y181C ; cells: CEM + CEM-SS ; read by: XTT ; strain or isolate: UC38-resistant (RT Y181C) ; read-out: EC50 ; value: 1.9 µM
CC(=O)Oc1ccc(/C=C/C(=O)O[C@@H](C(=O)O)[C@@H](OC(=O)/C=C/c2ccc(OC(C)=O)c(OC(C)=O)c2)C(=O)O)cc1OC(C)=O ; mutations: AMD3100-resistant ; cells: MT-4 ; strain or isolate: NL4-3 ; read-out: EC50 ; value: >74 µM
Cc1cn([C@H]2C[C@H](N=[N+]=[N-])[C@@H](CO)O2)c(=O)[nH]c1=O ; cells: PBL ; read by: p24 ; strain or isolate: CLADE D ; read-out: EC50 ; value: 0.015 µM
Cc1cccc(C)c1OCC(=O)N[C@@H](Cc1ccccc1)[C@@H](O)C[C@H](Cc1ccccc1)NC(=O)[C@H](C(C)C)N1CCCNC1=O ; mutations: L10I I15V K20R L24I M36I M46L I54V I62V L63P K70Q V82A L89M ; cells: PBMC ; read by: p24 / luminescence ; strain or isolate: Clinical isolate ; setting: clinical isolate, multidrug-resistant ; read-out: EC50 ; value: 0.42 µM
CC(C)=CCN1Cc2cc(Cl)cc3[nH]c(=S)n(c23)C[C@@H]1C ; cells: CEM + CEM-SS ; read by: cytopathic effect / MTT ; strain or isolate: PM16 ; read-out: EC50 ; value: 0.652 µM
CCC(=O)c1ccc(F)c([C@@H]2C[C@@H]2NC(=O)Nc2ccc(C#N)cn2)c1O ; cells: PBMC ; read by: absorbance ; strain or isolate: 96USNG31 ; read-out: EC50 ; value: 0.0011 µM
Cc1cn([C@H]2C[C@H](N=[N+]=[N-])[C@@H](CO)O2)c(=O)[nH]c1=O ; cells: PBMC ; read by: p24 ; strain or isolate: 458 clinical isolates delavirdine-resistant ; read-out: EC50 ; value: <0.3 µM
Nc1ccn([C@H]2CC[C@@H](CO)O2)c(=O)n1 ; mutations: RT-D67N K70R T215F K219Q ; cells: CEM ; read by: p24 ; strain or isolate: RTMC (RT D67N K70R T215F K219Q) ; read-out: EC50 ; value: 0.025 µg/mL
Cc1ccnc2c1NC(=O)c1cccnc1N2C1CC1 ; mutations: RT-K101E ; cells: MAGI ; read by: β-galactosidase ; strain or isolate: NNRTI-resistant (RT K101E) ; read-out: EC50 ; value: 0.52 µM
Cc1[nH]c(=O)c(F)cc1Cn1cnc(C(F)(F)C(F)F)c(Oc2cc(C(F)F)cc(C#N)c2C)c1=O ; read by: luminescence ; read-out: EC50 ; value: 34.4 µM
CC(C)=CCN1Cc2cc(Cl)cc3[nH]c(=S)n(c23)C[C@@H]1C ; mutations: RT-A98G K103R Y181C ; cells: PBMC ; strain or isolate: BCF01 ; read-out: EC50 ; value: >6.25 µM
Cc1ccnc2c1NC(=O)c1cccnc1N2C1CC1 ; cells: PBMC ; read by: cytopathic effect / XTT ; strain or isolate: ROJO ; setting: clinical isolate ; read-out: EC50 ; value: 0.3 µM
CC(=O)N1CCC(C(=O)N(CCCN2CCC(Cc3ccc(C(N)=O)cc3)CC2)c2ccc(C)c(Cl)c2)CC1 ; cells: U87 (CD4+ CCR5+) + U87 ; read by: luciferase ; strain or isolate: R5 subtype C_3 recombinant ; read-out: EC50 ; value: 0.0045 µM
Cc1ccnc2c1NC(=O)c1cccnc1N2C1CC1 ; mutations: RT-L100I ; cells: CEM ; read by: p24 ; strain or isolate: IIIB ; read-out: EC50 ; value: 0.1 µg/mL
CC(C)CN(C[C@@H](O)[C@H](Cc1ccccc1)NC(=O)O[C@H]1CCOC1)S(=O)(=O)c1ccc(N)cc1 ; mutations: PR-D30N A71V ; cells: MT-4 ; read by: p24 ; strain or isolate: NL4-3-P22 (PR D30N A71V) ; read-out: EC50 ; value: <0.04 µM
Cc1cn([C@H]2C[C@H](N=[N+]=[N-])[C@@H](CO)O2)c(=O)[nH]c1=O ; cells: MT-2 ; read by: cytopathic effect / MTT ; strain or isolate: LAI Laboratory isolate ; read-out: EC50 ; value: 0.024 µM
CC(C)=CCOc1cc(NC(=S)c2ccoc2C)ccc1Cl ; mutations: RT-K101E ; cells: CEM ; read by: cytopathic effect ; strain or isolate: C-1 (RT-K101E) ; read-out: EC50 ; value: 0.0073 µg/mL
Nc1nc(=O)n([C@@H]2CS[C@H](CO)O2)cc1F ; mutations: A114S/M184V ; cells: PBMC ; read by: single cycle / fluorescence ; strain or isolate: Clinical isolate ; read-out: EC50 ; value: >42 µM
CCCc1cc(=O)oc2c3c(c4c(c12)OC(C)(C)C=C4)O[C@H](C)[C@@H](C)[C@@H]3O ; cells: AA5 ; read by: XTT ; strain or isolate: IIIB ; read-out: EC50 ; value: 0.2 µM
S=C(NCCc1cccs1)Nc1ccc(Br)cn1 ; cells: HT4 + HeLa ; read by: plaque count ; strain or isolate: J821-1 Clinical isolate ; read-out: EC50 ; value: 0.065 µM
CC(C)CN(C[C@@H](O)[C@H](Cc1ccccc1)NC(=O)O[C@H]1CCOC1)S(=O)(=O)c1ccc(N)cc1 ; cells: PBMC ; read by: p24 / luminescence ; strain or isolate: 92UG029 ; read-out: EC50 ; value: 0.047 µM
N#Cc1cc2[nH]c3ccccc3c2n(-c2ccc([N+](=O)[O-])cc2)c1=O ; mutations: RT-K103N V108I ; cells: HeLa ; read by: luciferase ; strain or isolate: NNRTI-resistant ; read-out: EC50 ; value: 0.19 µM
CC(C)=CCN1Cc2cc(Cl)cc3[nH]c(=S)n(c23)C[C@@H]1C ; mutations: RT-G190E ; cells: CEM ; read by: p24 ; strain or isolate: IIIB ; read-out: EC50 ; value: ≥5 µg/mL
COc1ccc(S(=O)(=O)N(CC(C)C)C[C@@H](O)[C@H](Cc2ccccc2)NC(=O)O[C@H]2CO[C@H]3OCC[C@H]32)cc1 ; cells: MT-2 ; read by: cytopathic effect / MTT ; strain or isolate: NL4-3 Laboratory clone ; read-out: EC50 ; value: 0.0003 µM
Cc1cn([C@H]2C[C@H](N=[N+]=[N-])[C@@H](CO)O2)c(=O)[nH]c1=O ; mutations: RT-K103N ; cells: CEM ; read by: cytopathic effect ; strain or isolate: Y-1 (RT-K103N) ; read-out: EC50 ; value: 0.12 µM
Cc1cn([C@H]2C[C@H](N=[N+]=[N-])[C@@H](CO)O2)c(=O)[nH]c1=O ; mutations: RT-Y188H ; cells: CEM + CEM-SS ; read by: XTT ; strain or isolate: Costatolide-resistant (RT Y188H) ; read-out: EC50 ; value: 0.004 µM

The first 3 rows once more:

smiles | mutations | cells | read by | strain or isolate | setting | read-out | value
O=C1CN=C(c2ccc[nH]2)c2cc(Cl)ccc2N1 | - | CEM | antigen | IIIB/LAI | - | EC50 | 0.4 µM
CO[P@](=O)(c1cc(C)cc(/C=C/C#N)c1)c1c(C(N)=O)[nH]c2ccc(Cl)c(F)c12 | - | MT-4 | - | BH10 | - | EC50 | 0.00028 µM
Fc1cccc(F)c1C1SCc2nc3ccccc3n21 | RT-T139I | CEM + CEM-SS | XTT | Calanolide A-resistant (RT T139I) | - | EC50 | 3.9 µM